{"source": "patent US20050191735A1", "about": "“Oxidoreductase” (priority 2003, published 2005)", "data": [{"test_system": "recombinant Lactobacillus reuteri oxidoreductase", "assay": "ee determination for selected substrates by GC", "conditions": "24 h, 1 to 2 units of oxidoreductase", "units": {"Stereoselectivity (percent)": "%"}, "values": [{"smiles": "CCCCCCC(C)=O", "note": "[2-Octanone]", "Stereoselectivity (enantiomer formed)": "Racemate", "Stereoselectivity (percent)": 50}, {"smiles": "COC(=O)CCCCC(=O)CC(=O)OC", "note": "[Dimethyl-3-oxo-1,8-octanedioic acid]", "Stereoselectivity (enantiomer formed)": "Racemate", "Stereoselectivity (percent)": 50}, {"smiles": "CCOC(=O)C(=O)CCc1ccccc1", "note": "[Ethyl 2-oxo-4-phenyl-butyrate]", "Stereoselectivity (percent)": 98}, {"smiles": "CCOC(=O)CCCCC(=O)CCCl", "note": "[Ethyl 8-chloro-6-oxooctanoic acid]", "Stereoselectivity (percent)": 94}, {"smiles": "CCOC(=O)C(C)=O", "note": "[Ethyl pyruvate]", "Stereoselectivity (percent)": 99}]}]}
